Laboratory results reported in patent US20240041851A1 (priority 2020, published 2024).
Some results come without the dose or concentration used.

System: Vero E6 cells
Format: cell-based, African Green Monkey

SMILES | log2Foldcha[nge]
NC1(C(=O)O)CC1 | −0.583
CC(=O)O[C@H](CC(=O)[O-])C[N+](C)(C)C [Acetyl-L-carnitine] | −0.6736
C[N+](C)(C)CC(=O)O [Betaine] | 0.1735
NCCOP(=O)(O)OP(=O)(O)OC[C@H]1O[C@@H](n2ccc(N)nc2=O)[C@H](O)[C@@H]1O [CDP-ethanolamine] | −0.1028
Cn1cnc(C[C@H](N)C(=O)O)c1 [Compound 1-Methyl-L-Histidine, 1-Methyl-L-Histidine] | −0.5011
N=CN1c2c(nc(N)[nH]c2=O)NCC1CNc1ccc(C(=O)N[C@@H](CCC(=O)O)C(=O)O)cc1 (stereo partly drawn) [Compound 5-Formimino-tetrahydrofolate, 5-Formimino-tetrahydrofolate] | −1.582
O=C(O)[C@H](O)[C@@H](O)[C@H](O)[C@H](O)CO [D-Gluconate] | 0.1346
CC(=O)C(O)O.O=P(O)(O)O [Dihydroxyacetone Phosphate] | 0.3987
O=CC(O)COP(=O)(O)O (stereo not drawn) [Glyceraldehyde 3-phosphate] | −0.1798
O=C(O)CNC(=O)c1ccccc1 [Hippurate] | −1.068
NCCS(=O)O [Hypotaurine] | 0.1961
O=C(O)C[C@H](C(=O)O)[C@@H](O)C(=O)O [Isociitrate] | −0.4479
N[C@@H](CS(=O)O)C(=O)O [L-Cysteinesulfinic acid] | 2.299
CC(=O)N[C@@H](CS)C(=O)O [N-Acetylcysteine] | −0.1883
C=C(OP(=O)(O)O)C(=O)O [Phosphoenol-pyruvate] | 0.4137
NCCCCNCCCN [Spermidine] | −0.5127
NC(=O)NC(CC(=O)O)C(=O)O (stereo not drawn) [Ureidosuccinic acid] | 0.6248
O=C(O)/C=C/c1c[nH]cn1 [Urocanic acid] | −0.7621
